PubChem BioAssay AID624099 | ICCB-Longwood – 2012
This is a random part of about 21,000 reagents. Over the whole deposit, 497 (2.4%) got an active call. 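Higher z means weaker E2 silencing; only reporter increases were scored, and knock-downs that hurt cell survival may mask genuine repressor factors.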 Reagents against one gene are numbered here.

Test: 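Host factors E2 relies on to silence an HPV18 LCR reporter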 (primary screen)
Cell system: human C33A cervical carcinoma cells (HPV-negative) stably expressing BPV1 E2 and an HPV18 LCR luciferase reporter
Reagents: siRNA pool against human genes, 40 nM
Duration: 72 h
Detection: 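Per-well luciferase luminescence, z-scored on each plate against the plate mean and SD with control wells left out, then averaged across three replicate plates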
Scale: mean z-score and z-score: higher = stronger reporter signal, weaker E2 silencing
Call rule: 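Mean z ≥ 2 together with z ≥ 2 in two or more of the three replicates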

{"gene": "STX1A (syntaxin 1A)", "pool no.": 1, "mean z-score": -1.34, "z-score, replicate A": -1.19, "z-score, replicate B": -1.38, "z-score, replicate C": -1.45, "Call": "inactive"}
{"gene": "RPL18AP6 (ribosomal protein L18a pseudogene 6)", "pool no.": 1, "mean z-score": -0.19, "z-score, replicate A": -0.25, "z-score, replicate B": 0.23, "z-score, replicate C": -0.54, "Call": "inactive"}
{"gene": "SRP14P1 (SRP14 pseudogene 1)", "pool no.": 1, "mean z-score": -0.47, "z-score, replicate A": -0.36, "z-score, replicate B": -0.69, "z-score, replicate C": -0.37, "Call": "inactive"}
{"gene": "DHRS3 (dehydrogenase/reductase 3)", "pool no.": 1, "mean z-score": 1.13, "z-score, replicate A": 1.17, "z-score, replicate B": 1.04, "z-score, replicate C": 1.17, "Call": "inactive"}
{"gene": "LOC284964 (retired record)", "pool no.": 1, "mean z-score": 0.25, "z-score, replicate A": 0.31, "z-score, replicate B": 0.41, "z-score, replicate C": 0.04, "Call": "inactive"}
{"gene": "LOC51212 (retired record)", "pool no.": 1, "mean z-score": 0.1, "z-score, replicate A": 0.45, "z-score, replicate B": -0.04, "z-score, replicate C": -0.1, "Call": "inactive"}
{"gene": "C19orf53 (chromosome 19 open reading frame 53)", "pool no.": 1, "mean z-score": 0.49, "z-score, replicate A": 0.21, "z-score, replicate B": 0.72, "z-score, replicate C": 0.55, "Call": "inactive"}
{"gene": "ZGRF1 (zinc finger GRF-type containing 1)", "pool no.": 1, "mean z-score": 0.12, "z-score, replicate A": -0.19, "z-score, replicate B": 0.05, "z-score, replicate C": 0.51, "Call": "inactive"}
{"gene": "ZGRF1 (zinc finger GRF-type containing 1)", "pool no.": 2, "mean z-score": -0.36, "z-score, replicate A": -0.45, "z-score, replicate B": -0.46, "z-score, replicate C": -0.16, "Call": "inactive"}
{"gene": "PTX3 (pentraxin 3)", "pool no.": 1, "mean z-score": 0.29, "z-score, replicate A": 0.28, "z-score, replicate B": 0.42, "z-score, replicate C": 0.17, "Call": "inactive"}
{"gene": "C1QTNF1 (C1q and TNF related 1)", "pool no.": 1, "mean z-score": 0.23, "z-score, replicate A": 0.02, "z-score, replicate B": 0.45, "z-score, replicate C": 0.21, "Call": "inactive"}
{"gene": "MLN (motilin)", "pool no.": 1, "mean z-score": 1.84, "z-score, replicate A": 1.62, "z-score, replicate B": 1.76, "z-score, replicate C": 2.15, "Call": "inactive"}
{"gene": "C1orf210 (chromosome 1 open reading frame 210)", "pool no.": 1, "mean z-score": -1.79, "z-score, replicate A": -1.94, "z-score, replicate B": -1.85, "z-score, replicate C": -1.58, "Call": "inactive"}
{"gene": "APOL5 (apolipoprotein L5)", "pool no.": 1, "mean z-score": 0.27, "z-score, replicate A": 0.18, "z-score, replicate B": 0.16, "z-score, replicate C": 0.47, "Call": "inactive"}
{"gene": "TTC14 (tetratricopeptide repeat domain 14)", "pool no.": 1, "mean z-score": 1.24, "z-score, replicate A": 1.29, "z-score, replicate B": 0.94, "z-score, replicate C": 1.51, "Call": "inactive"}
{"gene": "ZFAND2B (zinc finger AN1-type containing 2B)", "pool no.": 1, "mean z-score": 0.26, "z-score, replicate A": 0.08, "z-score, replicate B": 0.19, "z-score, replicate C": 0.5, "Call": "inactive"}
{"gene": "TP53TG1 (TP53 target 1)", "pool no.": 1, "mean z-score": 0.51, "z-score, replicate A": 0.58, "z-score, replicate B": 0.27, "z-score, replicate C": 0.67, "Call": "inactive"}
{"gene": "SURF6 (surfeit 6)", "pool no.": 1, "mean z-score": -0.31, "z-score, replicate A": 0.2, "z-score, replicate B": -0.59, "z-score, replicate C": -0.55, "Call": "inactive"}
{"gene": "TGM4 (transglutaminase 4)", "pool no.": 1, "mean z-score": 0.18, "z-score, replicate A": 0.44, "z-score, replicate B": 0.11, "z-score, replicate C": 0, "Call": "inactive"}
{"gene": "LOC401410 (retired record)", "pool no.": 1, "mean z-score": 0.65, "z-score, replicate A": 0.67, "z-score, replicate B": 0.75, "z-score, replicate C": 0.54, "Call": "inactive"}
{"gene": "LOC401410 (retired record)", "pool no.": 2, "mean z-score": -0.01, "z-score, replicate A": 0.18, "z-score, replicate B": 0.05, "z-score, replicate C": -0.25, "Call": "inactive"}

2 of these entries, set out differently:
| gene | pool no. | mean z-score | z-score, replicate A | z-score, replicate B | z-score, replicate C | Call |
| --- | --- | --- | --- | --- | --- | --- |
| MLN (motilin) | 1 | 1.84 | 1.62 | 1.76 | 2.15 | inactive |
| C1orf210 (chromosome 1 open reading frame 210) | 1 | -1.79 | -1.94 | -1.85 | -1.58 | inactive |
